Measurements as given in the CheMixHub ionic liquid set.

Experiment: xn = mol fraction of the nth substance listed

CC[n+]1ccn(C)c1.O=S(=O)(F)[N-]S(=O)(=O)F + O=S(=O)(F)[N-]S(=O)(=O)F.[Li+]
100 kPa, x2 = 0
Details	electrical conductivity [S/m]	viscosity [mPa·s]
278 K	0.86 ± 0.01	38.3 ± 0.8
308 K	2.07 ± 0.02	14.4 ± 0.3
338 K	3.75 ± 0.04	7.2 ± 0.2

CC[n+]1ccn(C)c1.O=S(=O)(F)[N-]S(=O)(=O)F + O=S(=O)(F)[N-]S(=O)(=O)F.[K+]
101 kPa
Details	electrical conductivity [S/m]	viscosity [mPa·s]
273 K, x2 = 0	0.73 ± 0.036	45.9 ± 1.5
288 K, x2 = 0.2	0.706 ± 0.035	57.4 ± 1.9
298 K, x2 = 0.1	1.33 ± 0.07	26.6 ± 0.9
303 K, x2 = 0	1.86 ± 0.09	16.7 ± 0.5
308 K, x2 = 0	2.1 ± 0.1	14.6 ± 0.4
318 K, x2 = 0.2	1.81 ± 0.09	20.6 ± 0.7
323 K, x2 = 0.2	2.04 ± 0.1	18.1 ± 0.5
328 K, x2 = 0	3.18 ± 0.16	9.11 ± 0.29
333 K, x2 = 0	3.48 ± 0.17	8.22 ± 0.27
333 K, x2 = 0.1	3.04 ± 0.15	10.4 ± 0.3
348 K, x2 = 0.1	3.94 ± 0.2	7.61 ± 0.25
358 K, x2 = 0.1	4.61 ± 0.23	6.39 ± 0.2
368 K, x2 = 0.2	4.74 ± 0.24	6.75 ± 0.21

CCCC[n+]1ccccc1.O=S(=O)(F)[N-]S(=O)(=O)F + CCCC[n+]1ccccc1.F[B-](F)(F)F
101.3 kPa
Details	viscosity [mPa·s]
283.15 K, x1 = 0.2	275 ± 57
283.15 K, x1 = 0.4	180 ± 37
293.15 K, x1 = 0.2	146 ± 30
298.15 K, x1 = 0.6	61 ± 12
298.15 K, x1 = 0.8	47.8 ± 9.6
298.15 K, x1 = 1	40 ± 8
303.15 K, x1 = 0.6	50 ± 10
303.15 K, x1 = 1	33.3 ± 6.7
308.15 K, x1 = 0.2	68 ± 14
313.15 K, x1 = 0.2	54 ± 11
318.15 K, x1 = 0.2	44.1 ± 8.9
318.15 K, x1 = 0.4	35 ± 7.1
338.15 K, x1 = 0.2	22 ± 4.4
338.15 K, x1 = 0.6	16 ± 3.2
343.15 K, x1 = 0.2	19 ± 3.8
343.15 K, x1 = 0.8	12.3 ± 2.5
348.15 K, x1 = 0.2	16.6 ± 3.3

CC[n+]1ccn(C)c1.O=S(=O)(F)[N-]S(=O)(=O)F + O
100 kPa
Details	electrical conductivity [S/m]	viscosity [mPa·s]
288.15 K, x1 = 0.8207	1.68 ± 0.034	–
288.15 K, x1 = 0.8466	–	19.35 ± 0.39
288.15 K, x1 = 0.8994	1.47 ± 0.029	–
293.15 K, x1 = 0.7211	2.21 ± 0.044	–
293.15 K, x1 = 0.9748	1.51 ± 0.03	–
298.15 K, x1 = 0.8207	2.19 ± 0.044	–
298.15 K, x1 = 0.8466	–	14.56 ± 0.3
298.15 K, x1 = 0.8663	2.02 ± 0.04	–
298.15 K, x1 = 0.9111	–	16.42 ± 0.33
303.15 K, x1 = 0.771	2.62 ± 0.052	–
303.15 K, x1 = 0.8466	–	12.8 ± 0.26
303.15 K, x1 = 0.8994	2.19 ± 0.044	–
303.15 K, x1 = 0.9111	–	14.38 ± 0.29
308.15 K, x1 = 0.7211	3.13 ± 0.063	–
308.15 K, x1 = 0.771	2.92 ± 0.058	–
308.15 K, x1 = 0.7797	–	10.04 ± 0.2
308.15 K, x1 = 0.8663	2.56 ± 0.051	–
313.15 K, x1 = 0.7797	–	8.99 ± 0.18
313.15 K, x1 = 0.8207	3.05 ± 0.061	–
313.15 K, x1 = 0.8466	–	10.13 ± 0.21
318.15 K, x1 = 0.8207	3.36 ± 0.067	–
318.15 K, x1 = 0.9693	–	11.09 ± 0.23
323.15 K, x1 = 0.8796	–	8.65 ± 0.18
323.15 K, x1 = 0.8994	3.33 ± 0.067	–
323.15 K, x1 = 0.9111	–	9.11 ± 0.19
328.15 K, x1 = 0.9349	3.52 ± 0.07	–
333.15 K, x1 = 0.7211	4.87 ± 0.097	–
333.15 K, x1 = 0.8663	4.13 ± 0.083	–
333.15 K, x1 = 0.8796	–	7.15 ± 0.15
333.15 K, x1 = 0.9111	–	7.52 ± 0.15
333.15 K, x1 = 0.9748	3.69 ± 0.074	–

CCCC[n+]1ccccc1.F[B-](F)(F)F + CCCC[n+]1ccccc1.O=S(=O)(F)[N-]S(=O)(=O)F
101.3 kPa, x2 = 0
Details	viscosity [mPa·s]
308.15 K	93 ± 19
338.15 K	26.5 ± 5.3

± gives the uncertainty stated by the source.
